According to publication PMC10245118, “Structural basis of DNA binding by the WhiB-like transcription factor WhiB3 in Mycobacterium tuberculosis” (The Journal of Biological Chemistry, 2023):

Legend:
[1] = target: T1, WhiB3TR, truncated Mtb WhiB3 (aa 1-90) without the C-terminal residues 91-102 (Mycobacterium tuberculosis H37Rv, UniProt P9WF41 1-90); experiment: crystal structure
T1 sequence: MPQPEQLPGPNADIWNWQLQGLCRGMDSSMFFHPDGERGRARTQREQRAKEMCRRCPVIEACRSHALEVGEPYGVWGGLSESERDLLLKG

[2] = target: T2, Mtb WhiB3 (Rv3416, 1-102 aa), tagless, wildtype (Mycobacterium tuberculosis H37Rv, UniProt P9WF41 1-102); experiment: crystal structure
T2 sequence: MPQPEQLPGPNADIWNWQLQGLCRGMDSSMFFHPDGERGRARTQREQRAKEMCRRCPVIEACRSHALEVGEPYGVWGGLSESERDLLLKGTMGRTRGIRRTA

B1: σ^A4, conserved region 4 of Mtb σ^A, as it stands in the σ^A4-βtip chimera (domain or fragment)
chain: VAVDAVSFTLLQDQLQSVLDTLSEREAGVVRLRFGLTDGQPRTLDEIGQVYGVTRERIRQIESKTMSKLRHPSRSQVLRDYLD
B1: binds [1]; binds [2].
